Anti-infective test results gathered from many reports (values: NIAID ChemDB through PubChem).

Common to all: cytotoxicity tests; cells: PBMC; measure: CC50

CCn is the concentration with n% toxicity to the cells. Blank or dashed fields: not listed here. Neighbouring rows are from separate reports.

smiles	read by	result
Cc1nc(Cl)ccc1NC(=O)NCCc1ccc2c(n1)NCCC2		5.7 µM
Cn1c2c(c(=O)n(C)c1=O)S[C@H]1[C@@H](O2)O[C@H](COc2ccccc2)[C@@H](OCc2ccccc2)[C@@H]1OCc1ccccc1	MTT	>100 µM
CC(=O)Nc1cc2c(cc1OC(F)(F)F)CCN(c1nn3c(C)nnc3c3ccccc13)C2		2.55 µM
Cc1cnc(SCCN(C)C)nc1-c1ccc(-c2nc(SCCN(C)C)ncc2C)s1		10 µM
Cc1cn([C@H]2CO[C@@H](CO[P@@]3(=O)OCC[C@@H](c4ccccc4)O3)O2)c(=O)[nH]c1=O	MTT	>100 µM
Cc1nc(CCCCCCC(=O)c2ccccc2)n2nc(NCCCCCCNCc3cn([C@H]4C=C[C@@H](CO)O4)c(=O)[nH]c3=O)ccc12		25 µM
Cc1c(N2CCc3ccccc3C2)nn2c(C)nnc2c1C		74.7 µM
CCCc1ccc(OP(=O)(N[C@@H](C)C(=O)OC)OC[C@@H]2OC[C@H](n3cc(C)c(=O)[nH]c3=O)O2)cc1	MTT	25.6 µM
CCOC(=O)[C@H](C)NP(=O)(OC[C@@H]1OC[C@H](n2cnc3c(NC(C)=O)nc(N)nc32)O1)Oc1ccccc1		>100 µM
CCCCOC(=O)c1cc(O)c(O)c(O)c1	MTT	1460 µM
CCCCCCCC/C=C\CCCCCCCC(=O)Nc1nc(N)nc2c1ncn2[C@H]1CO[C@@H](COP(=O)(N[C@@H](C)C(=O)OCC)Oc2ccccc2)O1		10 µM
COC(=O)c1cc(O)c(O)c(O)c1	MTT	1230 µM
CCCCCC(=O)Nc1nc(N)nc2c1ncn2[C@H]1CO[C@@H](COP(=O)(N[C@@H](C)C(=O)OCC)Oc2ccccc2)O1		>100 µM
CC(=O)OC[C@H]1O[C@@H]2Oc3c(c(=O)n(C)c(=O)n3C)S[C@@H]2[C@@H](OC(C)=O)[C@H]1OC(C)=O	MTT	39 µM
CCCCCCCCCCCCCCCCOCCCOP(=O)(N[C@H](C(=O)OC)C(C)C)OC[C@@H]1OC[C@H](n2cc(C)c(=O)[nH]c2=O)O1	MTT	10.7 µM
Nc1nccc2c1ncn2[C@@H]1C[C@H](CO)[C@@H](O)[C@H]1O		9.85 µM
CN(C)CCSc1ccc(-c2ccc(-c3ccc(SCCN(C)C)cc3)nn2)cc1		10 µM
[N-]=[N+]=N[C@@H]1C[C@@H](n2cc(F)c(N)nc2=O)O[C@H]1CO	trypan blue	>100 µM
CCCCCCCC(=O)Nc1nc(N)nc2c1ncn2[C@H]1CO[C@@H](COP(=O)(N[C@@H](C)C(=O)OCC)Oc2ccccc2)O1		>100 µM
C/C(=C\CP(=O)(OCOC(=O)OC(C)C)OCOC(=O)OC(C)C)Cn1cc(C(N)=O)nn1	absorbance	76.8 µM
COC(=O)[C@H](C)NP(=O)(OC[C@@H]1OC[C@H](n2cc(C)c(=O)[nH]c2=O)O1)Oc1ccc(CC(C)(C)C)cc1	MTT	15.4 µM
OCCN(CCO)CCOc1nc(-c2cccs2)cc(-c2cccs2)n1		100 µM
O=C(NCCc1ccc2c(n1)NCCC2)NCC1CCCCC1		16 µM
C/C(=C\CP(=O)(OCOC(=O)OC(C)C)OCOC(=O)OC(C)C)Cn1cc(C(C)(C)C)nn1	absorbance	28.3 µM
COC(=O)[C@H](C)NP(=O)(OC[C@@H]1OC[C@H](n2cc(C)c(=O)[nH]c2=O)O1)Oc1ccc(F)cc1	MTT	>100 µM
CCOC(=O)c1cn(C/C(C)=C/CP(=O)(OCOC(=O)OC(C)C)OCOC(=O)OC(C)C)nn1	absorbance	67.5 µM
O=C(NCCc1ccc2c(n1)NCCC2)NC1CCc2ccccc2C1		0.64 µM
CN1c2c(-c3ccccc3)nn(CC(=O)N/N=C/c3ccc(O)cc3O)c2-c2ccccc2S1(=O)=O		7.8 µM
COc1ccccc1N1CCN(c2c(F)cc3c(=O)c(C(=O)O)cn(C)c3c2CN(C)C)CC1		>20 µM
COC(=O)[C@H](C)NP(=O)(OC[C@@H]1OC[C@H](n2cc(C)c(=O)[nH]c2=O)O1)Oc1ccc(OC)cc1	MTT	21.1 µM
O=C(O)[C@H]1O[C@@H](Oc2ccc(/C=C/c3cc(O)cc(O)c3)cc2)[C@H](O)[C@@H](O)[C@@H]1O	MTT	>300 µM
O=C(CCc1ccc(F)c(F)c1)NCCc1ccc2c(n1)NCCC2		50 µM
Cc1nc(CCCCCCC(=O)c2ccccc2)n2nc(NCCCCCCCCN)ccc12		>10 µM
Cc1nnc2c3ccccc3c(N3CCc4ccc(C(=O)O)cc4C3)nn12		54 µM
Cc1ccc(-c2cccc(-c3ccc(CNCCN(C)C)cc3)n2)cc1		10 µM
O=C(NCCc1ccc2c(n1)NCCC2)NCc1ccncc1		50 µM
CCN(CC)c1ccc(/C=N/NC(=O)Cn2nc(-c3ccccc3)c3c2-c2ccccc2S(=O)(=O)N3C)cc1		>100 µM
CN(C)CCSc1nc(-c2cccs2)cc(-c2cccn2C)n1		100 µM
CCCCCCCCCCCC(=O)Nc1nc(N)nc2c1ncn2[C@H]1CO[C@@H](COP(=O)(N[C@@H](C)C(=O)OCC)Oc2ccccc2)O1		14 µM
C/C(=C\CP(=O)(OCOC(=O)OC(C)C)OCOC(=O)OC(C)C)Cn1cc(-c2ccc([N+](=O)[O-])cc2)nn1	absorbance	23.5 µg/mL
COc1ccc(/C=N/NC(=O)Cn2nc(-c3ccccc3)c3c2-c2ccccc2S(=O)(=O)N3C)cc1		>100 µM
Cc1cn([C@H]2CO[C@@H](CO[P@]3(=O)OCC[C@H](c4cccc(Cl)c4)O3)O2)c(=O)[nH]c1=O	MTT	>100 µM
CN1CCN(CCSc2nnc(-c3cc4ccccc4s3)c3ccccc23)CC1		100 µM
CCCCCCOC(=O)c1cc(O)c(O)c(O)c1	MTT	1580 µM
O=C(NCCc1ccc2c(n1)NCCC2)Nc1ccccc1C(F)(F)F		29 µM
Nc1cnc2c(c1)CN(c1nn3c(C4CC4)nnc3c3ccccc13)CC2		100 µM
Cc1nc(CCCCCCC(=O)c2ccccc2)n2nc(Cl)ccc12		>10 µM
C/C(=C\CP(=O)(OCOC(=O)OC(C)C)OCOC(=O)OC(C)C)Cn1cc(C=O)nn1	absorbance	75.1 µM
CN1c2c(-c3ccccc3)nn(CC(=O)N/N=C/c3ccccc3F)c2-c2ccccc2S1(=O)=O		>100 µM
Nc1nccc2c1ncn2[C@@H]1O[C@H](CO)[C@@H](O)[C@H]1O		9.91 µM
O=C(CNCCc1ccc2c(n1)NCCC2)Nc1cccc(F)c1		50 µM
CCn1cc(C(=O)O)c(=O)c2cc(F)c(N3CCN(c4ccccc4OC)CC3)c(OC(F)F)c21		16.3 µM
O=C(NCCc1ccc2c(n1)NCCC2)N1Cc2ccccc2C1		50 µM
CC(=O)O[C@@H]1[C@@H](OC(C)=O)[C@H](C)O[C@@H]2Oc3c(c(=O)n(C)c(=O)n3C)S[C@@H]21	MTT	46.2 µM
Nc1ccc2c(c1)CN(c1nn3c(-c4cccs4)nnc3c3ccccc13)CC2		4.3 µM
CN(C)CCNc1nc(-c2cccs2)cc(-c2cccs2)n1		10 µM
CCCCCCCCCCCCCCCCCCOCCOP(=O)(O)OC[C@@H]1OC[C@H](n2cc(C)c(=O)[nH]c2=O)O1	MTT	15.04 µM
CN1CCN(CCSc2nccc(-c3ccc(-c4cccs4)s3)n2)CC1		100 µM
CC(=O)O[C@H]1[C@@H](OC(C)=O)[C@@H](CO[Si](c2ccccc2)(c2ccccc2)C(C)(C)C)O[C@@H](O[C@H]2[C@H](OC(C)=O)[C@H]3Sc4c(n(C)c(=O)n(C)c4=O)O[C@H]3O[C@@H]2CO[Si](c2ccccc2)(c2ccccc2)C(C)(C)C)[C@@H]1OC(C)=O	MTT	100 µM
O=c1[nH]c(=O)n([C@H]2C=C[C@@H](CO)O2)cc1CO		55 µM
O=C(Nc1ccc(C(F)(F)F)cc1)Nc1ccc2c(c1)CCC2		2 µM
CCCCCOC(=O)c1cc(O)c(O)c(O)c1	MTT	1525 µM
COC(=O)c1cn(C/C(C)=C/CP(=O)(OCOC(=O)OC(C)C)OCOC(=O)OC(C)C)nn1	absorbance	40.9 µM